Results of unrelated studies side by side (data: NIAID ChemDB).

All rows: growth or infection tests; agent: HIV-1; cell line: MT-4; read-out: EC90

Blank or dashed fields: not listed here.

{"smiles": "Nc1nc(=O)n([C@H]2C=C[C@@H](CO)O2)cc1F", "strain or isolate": "XM-Q151M", "changes": "RT-A62V V75I F77C F116Y Q151M", "read by": "p24", "result": "32 µM"}
{"smiles": "Cc1ccc(Nc2c([N+](=O)[O-])ncn2CC2=CC(=O)C(=O)CN2C)cc1", "strain or isolate": "IIIB", "read by": "MTT", "result": ">25.4 µM"}
{"smiles": "O=C1Nc2ccc(Cl)c(O)c2[C@@](C#Cc2ccccc2)(C(F)(F)F)N1", "changes": "RT-K103N", "read by": "p24", "result": "0.03 µM"}
{"smiles": "CN1CC(=O)C(=O)C=C1Cn1cnc([N+](=O)[O-])c1Nc1cc(Cl)cc(Cl)c1", "strain or isolate": "IIIB", "read by": "MTT", "result": ">7.3 µM"}
{"smiles": "O=C1Nc2ccc(Cl)c3c2[C@](C(F)(F)F)(C=C(c2ccccc2)O3)N1", "changes": "RT-K103N", "read by": "p24", "result": "0.046 µM"}
{"smiles": "CN1CC(=O)C(=O)C=C1Cn1cnc([N+](=O)[O-])c1Sc1ccc(Cl)cc1", "strain or isolate": "IIIB", "read by": "MTT", "result": ">3.6 µM"}
{"smiles": "CC1(C)C2CC[C@@]3(C)C4CC[C@@]5(C)CC[C@](C)(C(=O)O)C[C@H]5C4=CC(=O)C3[C@@]2(C)CC[C@@H]1O[C@@H]1O[C@H](C(=O)O)[C@@H](O[C@@H]2O[C@H](C(=O)O)[C@@H](O)[C@H](O)[C@H]2O)[C@H](O)[C@H]1O", "strain or isolate": "EVK", "read by": "p24", "result": "950 µg/mL"}
{"smiles": "Cc1cc(C)cc(S(=O)(=O)c2c(C(=O)NCC(=O)NN)[nH]c3ccc(Cl)cc23)c1", "strain or isolate": "IIIB", "read by": "cytopathic effect / MTT", "result": "0.03 µM"}
{"smiles": "CN1CC(=O)C(=O)C=C1Cn1cnc([N+](=O)[O-])c1Sc1ccccc1", "strain or isolate": "IIIB", "read by": "MTT", "result": ">23.6 µM"}
{"smiles": "Cc1cn([C@H]2C=C[C@@H](CO)O2)c(=O)[nH]c1=O", "strain or isolate": "XM-Q151M", "changes": "RT-A62V V75I F77C F116Y Q151M", "read by": "p24", "result": "22 µM"}
{"smiles": "Cc1cn([C@H]2C=C[C@@H](CO)O2)c(=O)[nH]c1=O", "read by": "p24", "result": "1.15 µM"}
{"smiles": "NC1=NC=NC2C1N=CN2[C@H]1C[C@@H](CCP(=O)(O)O)CO1", "read by": "MTT", "result": "80 µg/mL"}
{"smiles": "Cc1cn([C@H]2C=C[C@@H](COC(=O)CCCCCCCCCCCN=[N+]=[N-])O2)c(=O)[nH]c1=O", "read by": "p24", "result": "0.75 µM"}
{"smiles": "Nc1nccc2c1ncn2[C@H]1CC[C@@H](CO)O1", "strain or isolate": "IIIB", "read by": "syncytia", "result": ">200 µM"}
{"smiles": "Cc1cn([C@H]2C[C@H](N=[N+]=[N-])[C@@H](CO)O2)c(=O)[nH]c1=O", "strain or isolate": "IIIB", "read by": "MTT", "result": "0.0064 µM"}
{"smiles": "Cc1cn([C@H]2C=C[C@@H](COC(=O)CCCCCCCCCCCBr)O2)c(=O)[nH]c1=O", "read by": "p24", "result": "1.1 µM"}
{"smiles": "COc1ccc(/C=C/C(=O)O[C@@H]2[C@@H](OC(=O)/C=C/c3ccc(OC)cc3)[C@H](O[C@H]3[C@H](OC(=O)/C=C/c4ccc(OC)cc4)[C@@H](OC(=O)/C=C/c4ccc(OC)cc4)[C@H](O[C@H]4CC[C@@]5(C)C(CC[C@]6(C)C5C(=O)C=C5C7C[C@@](C)(C(=O)O)CC[C@]7(C)CC[C@]56C)C4(C)C)O[C@@H]3C(=O)O)O[C@H](C(=O)O)[C@H]2OC(=O)/C=C/c2ccc(OC)cc2)cc1", "strain or isolate": "EVK", "read by": "p24", "result": ">1000 µg/mL"}
{"smiles": "COc1c(Cl)ccc2c1[C@@](C#Cc1cccnc1)(C(F)(F)F)NC(=O)N2", "changes": "RT-K103N", "read by": "p24", "result": "0.147 µM"}
{"smiles": "Cc1cc(C)cc(S(=O)(=O)c2c(C(N)=O)[nH]c3c(Cl)cc(Cl)cc23)c1", "strain or isolate": "IIIB", "read by": "cytopathic effect / MTT / p24", "result": "1.2 µM"}
{"smiles": "CCOP(=O)(OCC)OC[C@@H]1CC[C@H](n2cnc3c(N)nccc32)O1", "strain or isolate": "IIIB", "read by": "syncytia", "result": "25 µM"}
{"smiles": "Cc1ccc(C2CC2)c(-c2cc(F)c3c(c2C)CCCO3)c1[C@H](OC1CC1)C(=O)O", "strain or isolate": "NL4-3", "read by": "luminescence", "result": "0.03 µM"}
{"smiles": "CSc1cc(N)nc(S[C@@H](C)c2cc3ccoc3cn2)n1", "strain or isolate": "IIIB", "read by": "p24", "result": "0.008 µM"}
{"smiles": "O=C1Nc2ccc(Cl)c3c2[C@](C(F)(F)F)(C=C(c2cccnc2)O3)N1", "changes": "RT-K103N", "read by": "p24", "result": "0.076 µM"}
{"smiles": "C[C@@H]1CCO[C@H]2Cn3cc(C(=O)NCc4ccc(F)cc4F)c(=O)c(O)c3C(=O)N12", "strain or isolate": "NL4-3", "read by": "luminescence", "result": "0.0063 µM"}

For reference, 2 entries again:

| smiles | strain or isolate | changes | read by | result |
|---|---|---|---|---|
| Cc1cn([C@H]2C=C[C@@H](COC(=O)CCCCCCCCCCCBr)O2)c(=O)[nH]c1=O | - | - | p24 | 1.1 µM |
| CSc1cc(N)nc(S[C@@H](C)c2cc3ccoc3cn2)n1 | IIIB | - | p24 | 0.008 µM |

ECn: concentration that inhibits the pathogen or its effect by n%. Lines come from different laboratories, so protocols vary.